This test concerns C. neoformans H99. The test can be described thus: Sterylglucoside (ergosterol 3β-D-glucoside) accumulation in C. neoformans cells. The note with it: compared with other hits. The procedure: C. neoformans H99 was cultivated in yeast nitrogen base (YNB) broth for 24 h at 37 °C with shaking. A pellet with 5×10^8 cells was treated during 24 h with all the hits selected, according to the toxicity criteria, in various concentrations. […] After that, the resultant pellets were re-counted and used for lipid extraction. Thenceforth the total lipid was extracted and dried samples were resuspended in chloroform/methanol 2:1 ratio for LC-MS analysis. A standard erg-glc from Avanti Polar Lipids was used as a control for the calibration curve. Data were normalized to the total inorganic phosphate content in the sample.

Entries after “also recorded” stand apart in the source; their conditions may differ. The source holds more than one record for some entries. This is not the full list of results. There may be further records. Results that share an entry differ, and nothing given here explains why; some may be repeats, others may stem from another dose, organism or construct than stated.

Take `CN1C[C@H](NC(=O)Cc2ccc3c(c2)NC(=O)CO3)C[C@H]1CO`: the “SG accumulation in Cn WT cells” value is “accumulate more SGs than those treated with Hit 1 or Hit 15; also recorded: higher accumulation of SGs in Cn cells compared to Hit 1 or Hit 15”.

Values taken from patent publication US20260384417A1, “STERYLGLUCOSIDASE INHIBITING COMPOSITIONS AND METHOD OF USING” (published 2026).
